Results: PubChem BioAssay AID624268 (The Scripps Research Institute Molecular Screening Center, 2012)
This is a selection; strong and weak results do not stand in their true shares. Active and inactive are the calls of the source.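 Rule for the calls: active = inhibition above a per-plate cutoff of the control wells' mean inhibition plus 3 SD (cut at about 5.5% in these data); inactive = the rest.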

Each compound was assayed on methionyl-tRNA synthetase (Trypanosoma brucei brucei) (assay: inhibition of trypanosome methionyl-tRNA synthetase – biochemical, luminescence, primary screen (AID 624268;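 note: 0% = DMSO wells median and 100% = median of wells with control inhibitor compound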)). Details: purified T. brucei MetRS, ATP depletion, Kinase-Glo luminescence; at 11.9 µM; hits give high values.
Summary of the method: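 Assay system: T. brucei methionyl-tRNA synthetase, purified | Medium: HEPES buffer with MgCl2, KCl, DTT, spermine, BSA, pyrophosphatase | Compound: 11.9 µM single point | Incubation: 15 min enzyme-compound preincubation, 2 h reaction, 10 min detection, 25 °C | Measured by: Kinase-Glo luciferase luminescence reporting remaining unconsumed ATP | Measure: % inhibition normalized to control-well medians | Replication: Singlicate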
In the case of `CN(C)C(=O)Oc1noc2ccccc12`, the inhibition is reported as inactive: -0.48%.
In the case of `O=c1c2cc([N+](=O)[O-])ccc2[nH]c2c([N+](=O)[O-])cc([N+](=O)[O-])cc12`, the inhibition is reported as inactive: 0.15%.
In the case of `Cc1ccccc1OP(=O)(Nc1ccccn1)Oc1ccccc1C`, the inhibition is reported as inactive: -1.36%.
`CC(NC(=O)COC(=O)C(O)(c1ccccc1)c1ccccc1)c1ccccc1` (stereo unspecified) was tested, and the inhibition was inactive: -0.08%.
In the case of `CCC(=O)N1C2C3N(C(=O)CC)C1C1N(C(=O)CC)C(C(N1C(=O)CC)N3C(=O)CC)N2C(=O)CC`, the inhibition is reported as inactive: -0.4%.
In the case of `O=C(OC1CN2CCC1CC2)c1ccccc1` (stereo unspecified), the inhibition is reported as inactive: -0.51%.
`Cc1ccc(OP(=O)(Nc2ccccn2)Oc2ccc(C)cc2)cc1` was tested, and the inhibition was inactive: 0.51%.
`CC(=O)NC(SC(=S)N(CC(C)C)CC(C)C)C(Cl)(Cl)Cl` (stereo unspecified) was tested, and the inhibition was inactive: 0.21%.
In the case of `COC(=O)c1cc2c(s1)N=C(c1ccccc1)N(C)P2(=O)N1CCOCC1` (stereo unspecified), the inhibition is reported as inactive: -0.43%.
With `O=P1(N(CCCl)CCCl)OCCC2CCCCN21` (stereo unspecified) the inhibition was inactive: -0.17%.
With `Cc1ccc(NP(=O)(Oc2cccc(C)c2)Oc2cccc(C)c2)nc1` the inhibition was inactive: -0.28%.
With `c1ccc(-c2nn[nH]n2)c(-c2nn[nH]n2)c1` the inhibition was inactive: -0.61%.
With `CCNC(=S)/N=C(\N)N[N+](=O)[O-]` the inhibition was inactive: -0.38%.
In the case of `O=C(NC1CCS(=O)(=O)C1)NP(=S)(Oc1ccccc1)Oc1ccccc1` (stereo unspecified), the inhibition is reported as inactive: 0.35%.
With `CC(=O)Nc1ccc(Oc2c([N+](=O)[O-])cc([N+](=O)[O-])cc2[N+](=O)[O-])cc1` the inhibition was inactive: 0.22%.
For `CC(=O)Nc1ccc([As](=O)(O)O)c(O)c1`, the inhibition was inactive: -0.38%.
For `C[C@@H]1C=CCP(=O)(Oc2ccccc2)O1` (stereo partly specified), the inhibition was inactive: -0.36%.
For `C[C@H]1OP(=O)(Oc2ccccc2)C[C@@H]2O[C@@H]21` (stereo partly specified), the inhibition was inactive: -0.16%.
In the case of `Cc1ccccc1CN(C)C(=O)COC(=O)C(O)(c1ccccc1)c1ccccc1`, the inhibition is reported as inactive: -0.07%.
In the case of `COC(=O)C1(C)COP(=O)(NCc2ccccc2)OC1` (stereo unspecified), the inhibition is reported as inactive: -0.4%.
In the case of `N#C/C(=C\c1ccc(N(CCBr)CCBr)cc1)C(N)=O`, the inhibition is reported as inactive: -0.35%.
With `CC(=O)c1ccc(N2CC2c2ccncc2)cc1` (stereo unspecified) the inhibition was inactive: -0.99%.
With `CC(C)(C)C(=O)NC(Sc1ccccc1)C(Cl)(Cl)Cl` (stereo unspecified) the inhibition was inactive: -0.03%.
For `CCc1cc(O)c([N+](=O)[O-])c(C)c1[N+](=O)[O-]`, the inhibition was inactive: -0.09%.
For `CCOc1ccc(C2=NCC(CBr)S2)cc1` (stereo unspecified), the inhibition was inactive: -0.47%.
In the case of `O=P1(Nc2nc3ccc(Cl)cc3s2)COc2ccccc2O1` (stereo unspecified), the inhibition is reported as inactive: -0.22%.
For `c1nnnn1CCn1cnnn1`, the inhibition was inactive: -0.17%.
For `CC(C)C(=O)NC(Sc1ccccc1)C(Cl)(Cl)Cl` (stereo unspecified), the inhibition was inactive: -1.02%.
For `O=P(Nc1nccs1)(c1ccccc1)c1ccccc1`, the inhibition was inactive: -0.82%.
In the case of `O=C(OC1CN2CCC1CC2)c1cccc(Cl)c1` (stereo unspecified), the inhibition is reported as inactive: 1.08%.
`Nc1ccc([As](=O)(O)c2ccc([N+](=O)[O-])cc2)cc1` was tested, and the inhibition was inactive: -0.01%.
With `C(Cc1nn[nH]n1)Cc1nn[nH]n1` the inhibition was inactive: -0.96%.
In the case of `O=[As](O)(c1ccccc1)c1ccc(O)cc1`, the inhibition is reported as inactive: 0.14%.
With `O=[N+]([O-])c1ccc(O)c(/C=N/Nc2ccc([N+](=O)[O-])cc2[N+](=O)[O-])c1` the inhibition was inactive: 0.02%.
In the case of `O=[N+]([O-])c1ncn(CCn2cnc([N+](=O)[O-])n2)n1`, the inhibition is reported as inactive: -0.8%.
For `CC(=O)NC(SC(=S)N(C)C)C(Cl)(Cl)Cl` (stereo unspecified), the inhibition was inactive: -1.27%.
For `C[C@H]1OP(=O)(Oc2ccccc2)[C@H](O)[C@H](O)[C@H]1N=[N+]=[N-]` (stereo partly specified), the inhibition was inactive: -0.24%.
For `O=P(Nc1nc2ccccc2s1)(c1ccccc1)c1ccccc1`, the inhibition was inactive: 1.15%.
`O=P(Nc1ccccn1)(c1ccc(Br)cc1)c1ccc(Br)cc1` was tested, and the inhibition was inactive: 0.04%.
In the case of `CN(C)C1(CNC(=O)c2ccc(Cl)c(S(N)(=O)=O)c2)CCCCC1`, the inhibition is reported as inactive: -0.85%.
`Nc1ccc(CCCCOc2ccccc2)cc1` was tested, and the inhibition was inactive: -0.03%.
`COc1ccc(N)c([N+](=O)[O-])c1[N+](=O)[O-]` was tested, and the inhibition was inactive: -0.2%.
For `O=C(O)CNc1ccc([As](=O)(O)O)cc1`, the inhibition was inactive: -0.34%.
With `O=[N+]([O-])c1cccc(NC2=NCC(CBr)S2)c1` (stereo unspecified) the inhibition was inactive: -0.38%.
For `COC(=O)C1(C)COP(=O)(Nc2ccccc2)OC1` (stereo unspecified), the inhibition was inactive: 0.08%.
For `O=[N+]([O-])c1ncn(CCn2ncnc2[N+](=O)[O-])n1`, the inhibition was inactive: -0.36%.
`CC(C)(C)C(=O)NC(Sc1ccncn1)C(Cl)(Cl)Cl` (stereo unspecified) was tested, and the inhibition was inactive: -0.29%.
With `O=C(Nc1cc([As](=O)(O)O)ccc1O)c1ccccc1` the inhibition was inactive: -0.4%.
In the case of `O=P1(N(CCCl)CCCl)OCCCS1` (stereo unspecified), the inhibition is reported as inactive: -0.27%.
With `c1cc(-c2nn[nH]n2)ccc1-c1nn[nH]n1` the inhibition was inactive: -0.03%.
With `CC1CCN(C(=O)Oc2c(Cl)cc(Cl)c3cccnc23)CC1` the inhibition was inactive: -0.3%.
In the case of `CN(C)C(=O)OCCc1n(C)cc[n+]1C`, the inhibition is reported as inactive: -0.47%.
`CC(C)=N/N=C(\N)N[N+](=O)[O-]` was tested, and the inhibition was inactive: -0.34%.
With `CC(C)c1nc(Nc2ccccc2)n(P(=O)(N(C)C)N(C)C)n1` the inhibition was inactive: -0.38%.
For `CCN(/C(=N/P(=O)(N1CCOCC1)N1CCOCC1)N1CCOCC1)c1ccc(OC)cc1`, the inhibition was inactive: -0.46%.
For `C[N+]1=C2C=CC=CC=C2SC12C([N+](=O)[O-])=CC([N+](=O)[O-])=C[C-]2[N+](=O)[O-]` (stereo unspecified), the inhibition was inactive: 0.56%.
`Nc1ccc([As](=O)(O)c2ccc(N)cc2)cc1` was tested, and the inhibition was inactive: -1.44%.
`CCc1nc2c(n1)c1c(non1O)c1c2no[n+]1[O-]` was tested, and the inhibition was inactive: -0.62%.
In the case of `O=[N+]([O-])c1cc([N+](=O)[O-])c(CCNc2ccccc2)c([N+](=O)[O-])c1`, the inhibition is reported as inactive: 0.19%.
With `Cc1ccc(NP(=O)(Oc2ccccc2)Oc2ccccc2)nc1` the inhibition was inactive: -0.51%.
In the case of `O=[N+]([O-])c1cccc2n[nH]nc12`, the inhibition is reported as inactive: 0.82%.
`CC(=O)N1C2C3N(C(C)=O)C1C1N(C(C)=O)C(C(N1C(C)=O)N3C(C)=O)N2C(C)=O` was tested, and the inhibition was inactive: -0.37%.
In the case of `COc1ccc(C2=NCC(CBr)S2)cc1` (stereo unspecified), the inhibition is reported as inactive: -0.8%.
`O=[N+]([O-])C1C(O)C(O)C([N+](=O)[O-])C(O)C1O` (stereo unspecified) was tested, and the inhibition was inactive: 0.2%.
`O=C(NC(Sc1ccncn1)C(Cl)(Cl)Cl)c1ccccc1` (stereo unspecified) was tested, and the inhibition was inactive: -0.65%.
For `Oc1ccccc1CNc1ccccn1`, the inhibition was inactive: -0.51%.
`CC(C)CC(=O)NC(Sc1ccc(Cl)cc1)C(Cl)(Cl)Cl` (stereo unspecified) was tested, and the inhibition was inactive: -1.08%.
For `Nc1cc(N)c2nonc2c1[N+](=O)[O-]`, the inhibition was inactive: 0.5%.
With `Clc1ccc(Cl)c(NC2=NCC(CBr)S2)c1` (stereo unspecified) the inhibition was inactive: -0.2%.
For `CN1CCCC(OC(=O)C(c2ccccc2)c2ccccc2)C1` (stereo unspecified), the inhibition was inactive: -0.59%.
`Cc1ccc(OP(=O)(Nc2nccs2)Oc2ccc(C)cc2)cc1` was tested, and the inhibition was inactive: -0.92%.
With `COc1ccccc1OP(=O)(Nc1ccc(C)cn1)Oc1ccccc1OC` the inhibition was inactive: -1.17%.
In the case of `Cc1ccc(N/C(=N/P(=O)(N2CCOCC2)N2CCOCC2)N2CCOCC2)cc1`, the inhibition is reported as inactive: -0.48%.
For `CN(C(=O)Cc1ccc(Cl)c(Cl)c1)[C@H]1CCCC[C@H]1N1CCCC1`, the inhibition was inactive: -0.5%.
For `NC(=O)c1cc([N+](=O)[O-])cc([N+](=O)[O-])c1N`, the inhibition was inactive: 0.5%.
For `Nc1cccc2ccc([As](=O)(O)O)cc12`, the inhibition was inactive: 0.71%.
With `CCN(N=Nc1nonc1N)c1nonc1N` the inhibition was inactive: -0.66%.
In the case of `Cc1ccc(NP(=O)(Oc2ccccc2F)Oc2ccccc2F)nc1`, the inhibition is reported as inactive: -0.13%.
`CN(C(=O)Cc1ccc(Cl)c(Cl)c1)[C@H]1CCCC[C@@H]1N1CCCC1` was tested, and the inhibition was inactive: -0.32%.
With `CCOP(=O)(Nc1ccccc1)OCC` the inhibition was inactive: -0.16%.
`Cc1cc(SC(NC(=O)c2ccc(F)cc2)C(Cl)(Cl)Cl)ncn1` (stereo unspecified) was tested, and the inhibition was inactive: 0.2%.
For `CN(C)P(=O)(N(C)C)n1c(Nc2ccccc2)nnc1-c1ccccc1`, the inhibition was inactive: -0.23%.
`O=P(Nc1nc2ccc(Cl)cc2s1)(c1ccccc1)c1ccccc1` was tested, and the inhibition was active: 13.9%.
In the case of `CCCC1OP(N)(=O)OCC1CC` (stereo unspecified), the inhibition is reported as inactive: -0.33%.
With `O=C(O)c1ccccc1[As](=O)(O)O` the inhibition was inactive: -0.66%.
With `CC(=O)Nc1ccc([As](=O)(O)O)cc1` the inhibition was inactive: -0.48%.
`O=[N+]([O-])c1cc([N+](=O)[O-])c(-c2ccn[nH]2)s1` was tested, and the inhibition was inactive: -0.84%.
`O=C(OC1CN2CCC1CC2)c1cccc2[nH]cnc12` (stereo unspecified) was tested, and the inhibition was inactive: -0.82%.
`CCN(CC)C(=S)SC(NC=O)C(Cl)(Cl)Cl` (stereo unspecified) was tested, and the inhibition was inactive: -0.62%.
With `CC(C)NC(=O)NP(=O)(Oc1ccccc1)Oc1ccccc1` the inhibition was inactive: -1.81%.
`ClCCSc1nnc(-c2cccnc2)o1` was tested, and the inhibition was inactive: -0.62%.
For `CC(C)c1ccc(OP(=O)(Nc2ccccn2)Oc2ccccc2F)cc1` (stereo unspecified), the inhibition was inactive: -0.66%.
In the case of `COC(=O)C1(C)COP(=O)(N2CCCCCC2)OC1` (stereo unspecified), the inhibition is reported as inactive: -0.25%.
In the case of `[N-]=[N+]=NC1CCCCC1NC(=O)c1cc([N+](=O)[O-])cc([N+](=O)[O-])c1` (stereo unspecified), the inhibition is reported as inactive: -2.22%.
For `Cc1ccc(OP(=O)(Nc2ccc([N+](=O)[O-])cn2)Oc2ccc(C)cc2)cc1`, the inhibition was inactive: -0.81%.
In the case of `Cc1ccc2nc3c(c(C)c2c1)CC(C(Cl)Cl)S3` (stereo unspecified), the inhibition is reported as inactive: -0.72%.
With `COc1cc(C(=O)NCC2(N3CCOCC3)CCCCC2)ccc1OCC(C)C` the inhibition was inactive: 0.1%.
`O=[N+]([O-])c1ccc(-c2cc([N+](=O)[O-])c(O)c([N+](=O)[O-])c2)cc1` was tested, and the inhibition was inactive: 0.25%.
In the case of `O=[As](O)(c1ccc(O)cc1)c1ccccc1O`, the inhibition is reported as inactive: 1.26%.
With `C[As](=O)(O)c1cccc(C(=O)O)c1` the inhibition was inactive: 0%.
With `O=[N+]([O-])c1cc(Oc2ccc([N+](=O)[O-])cc2C(F)(F)F)cc([N+](=O)[O-])c1` the inhibition was inactive: -0.23%.
